A mixed list of measured activities; the numbers were collected in NIAID ChemDB.

All rows: enzyme or target tests

ICn is the concentration giving n% inhibition. Percent inhibition refers to the dose given; in toxicity tests it is the harm to the cells. Fold resistance: result on the changed form divided by that on wild type. An empty or dashed field is not shown. Lines come from different laboratories, so protocols vary.

structure,mutations,conditions,read by,species,measure,protein,dose,strain,result
NC[C@H]1O[C@H](O[C@H]2[C@H](O)[C@@H](O)[C@H](N)C[C@@H]2N)[C@H](N)[C@@H](O)[C@@H]1O,-,-,gel,HIV-1,inhibition,Rev:RRE,100 µM,-,100%
Cc1cn([C@@H]2O[C@H](CO[Si](C)(C)C(C)(C)C)C3(OS(=O)(=O)C=C3N)[C@H]2O[Si](C)(C)C(C)(C)C)c(=O)n(C)c1=O,RT-N137Y,-,nucleotide incorporation / radiometric,HIV,fold resistance,Reverse transcriptase,-,-,0.19
O=C(O)c1cc2cc(O)c(O)cc2[nH]1,-,-,RNase H / fluorescence,HIV-1,IC50,RNase H + Reverse transcriptase,-,-,29 µM
CC[C@H](C)[C@H](NC(=O)OCc1ccccc1)C(=O)N[C@@H](Cc1ccccc1)C(O)[C@H](Cc1ccccc1)NC(=O)OC(C)(C)C,-,-,fluorescence,HIV-1,inhibition,Protease,0.01 µM,-,36%
O=c1c2ccccc2sn1-c1ccccc1,-,-,FRET / fluorescence,HIV-1,IC50,Capsid,-,-,4.7 µM
O=C(NCCc1ccc(O)c(O)c1)c1cc2cc(O)c(O)cc2[nH]1,Reverse transcriptase W535A,-,RNase H / fluorescence,HIV-1,IC50,RNase H + Reverse transcriptase,-,-,>100 µM
C[C@H](N)C(=O)O.[Na+],-,-,p24 / ELISA,HIV-1,IC50,Capsid,-,-,0.36 µM
CC[C@H](C)[C@@H](NC(=O)[C@@H](C[C@H](O)[C@H](CC(C)C)NC(=O)[C@H](Cc1cnc[nH]1)NC(=O)[C@H](Cc1ccccc1)NC(=O)[C@@H]1CCCN1C(=O)[C@@H](N)Cc1cnc[nH]1)C(C)C)C(=O)N[C@@H](Cc1cnc[nH]1)C(=O)O,-,pH 7.0,HPLC,HIV-2,Ki,Protease,-,-,>1 µM
C=CCOC(=O)C1=C(CCCCC[C@@H](C)O[Si](C)(C)C(C)(C)C)NC2=[N+]3[C@H](CC[C@@H]13)C[C@H](C)N2,-,-,ELISA,HIV-1,inhibition,Nef,5 µM,NL4-3,94.7%
CC1(C)OC(=O)/C(=C/C(=O)c2c[nH]c3ccc(Br)cc23)O1,Y143R,-,strand transfer / fluorescence,HIV-1,fold resistance,Integrase,-,-,1
Cc1cccc(C)c1OCC(=O)N[C@H](CCN1CC[C@@H](Sc2ncccn2)C[C@H]1C(=O)NC(C)(C)C)Cc1ccccc1,-,-,-,HIV-2,IC50,Protease,-,-,0.009 µM
CN[C@@H]1[C@@H](O)[C@@H](O[C@@H]2[C@@H](O)[C@H](O[C@H]3O[C@H]([C@@H](C)NC)CC[C@H]3N)[C@@H](N)C[C@H]2N)OC[C@]1(C)O,-,-,gel,HIV-1,inhibition,Rev:RRE,100 µM,-,0%
CC1(C)OC(=O)/C(=C/C(=O)c2cn(Cc3cc(F)ccc3F)c3ccc(F)cc23)O1,Y143R,-,strand transfer / fluorescence,HIV-1,fold resistance,Integrase,-,-,1
CC(C)C(NC(=O)[C@@H](NC(=O)OCc1ccccc1)C(C)C)C(F)(F)C(=O)C(CC1CCCCC1)NC(=O)[C@@H](NC(=O)OCc1ccccc1)C(C)C,-,-,fluorescence,HIV-1,IC50,Protease,-,-,<0.001 µM
Cc1cccc(C)c1OCC(=O)N[C@H](CCN1CC[C@@H](OCc2cccnc2)C[C@H]1C(=O)NC(C)(C)C)Cc1ccccc1,-,-,-,HIV-2,IC50,Protease,-,-,0.013 µM
CCOc1nc2cccc(C(=O)O)c2n1Cc1ccc(-c2ccccc2-c2nn[nH]n2)cc1,-,-,AlphaScreen,HIV-1,inhibition,Integrase,10 µM,-,42.26%
Oc1cc(O)c2c(c1)O[C@H](c1ccc(O)c(O)c1)[C@H](O)C2,-,-,ELISA,HIV-1,inhibition,gp120,0.5 µg/mL,IIIB,17%
CC[C@H]1C=CCC[C@@]2(C[C@@H]3CC[C@@H]4[C@H](C(=O)OCCCCCCCCCCC(=O)N(CCC[NH3+])C[C@@H](O)CC[NH3+])[C@]5(CCC[C@@H](C)O5)NC(=[N+]34)N2)O1,-,-,ELISA,HIV-1,inhibition,Nef,5 µM,NL4-3,93.9%
Cc1cccc(C)c1OCC(=O)N[C@@H](Cc1ccccc1)[C@H](O)CN1CC[C@@H](Sc2ccncc2)C[C@H]1C(=O)NC(C)(C)C,PR-V32I A71V,-,fluorescence,HIV,Ki,Protease,-,-,0.00006 µM
O=S1(=O)N(Cc2ccc(CO)cc2)[C@H](COc2ccccc2)[C@H](O)[C@@H](O)[C@@H](COc2ccccc2)N1Cc1ccc(CO)cc1,PR-I84V,-,-,HIV-1,fold resistance,Protease,-,-,14.8
Cc1cn([C@H]2C=C[C@@H](COP(=O)(O)OP(=O)(O)OP(=O)(O)O)O2)c(=O)[nH]c1=O,RT-N137E,-,nucleotide incorporation / radiometric,HIV,fold resistance,Reverse transcriptase,-,-,0.2
Cc1ccc2c(c1)n(CCNC(=S)Nc1ccc(Br)cn1)c(=O)c1cccn12,RT-V106A,-,nucleotide incorporation,HIV-1,Ki,Reverse transcriptase,-,-,0.08 µM
CNC(=O)[C@@H](NC(=O)[C@H](OCc1ccccc1)[C@H](O)[C@@H](O)[C@@H](OCc1ccccc1)C(=O)N[C@H]1c2ccccc2C[C@H]1O)C(C)C,PR-G48V,-,-,HIV,fold resistance,Protease,-,-,1.07
CC(C)[C@H](NC(=O)Cn1ccnc1)C(=O)N[C@@H](Cc1ccccc1)C(O)[C@H](Cc1ccccc1)NC(=O)[C@@H](NC(=O)OCc1ccccc1)C(C)C,-,-,fluorescence,HIV-1,inhibition,Protease,0.01 µM,-,31%
CC[C@H]1C(=O)Nc2ccc(F)cc2N1C(=O)OC(C)C,RT-P140A,-,nucleotide incorporation / radiometric,HIV,fold resistance,Reverse transcriptase,-,-,0.91
CC(C)[C@H](NC(=O)c1ccc2ccccc2n1)C(=O)N[C@@H](Cc1ccccc1)[C@H](O)CN1CC[C@@H](SCc2cccnc2)C[C@H]1C(=O)NC(C)(C)C,PR-L10I L23I M46I I84V,-,fluorescence,HIV,fold resistance,Protease,-,-,41.8
O=C1CC(c2ccccc2)Oc2ccccc21,-,-,fluorescence,HIV-1,IC50,RNase H,-,-,21 µM
O=c1c2cccn2c2cc(Cl)c(Cl)cc2n1CCNC(=S)Nc1ccc(Br)cn1,-,-,nucleotide incorporation,HIV-1,Ki,Reverse transcriptase,-,-,0.02 µM
NCCC(O)C(=O)N[C@H]1C[C@@H](N)[C@H](O[C@H]2O[C@H](CN)[C@@H](O)[C@H](O)[C@H]2N)[C@@H](O[C@@H]2O[C@H](CO)[C@H](O)[C@H]2O)[C@@H]1O,-,-,gel,HIV-1,inhibition,Rev:RRE,100 µM,-,0%
CC1(C)OC(=O)/C(=C/C(=O)c2cn(Cc3cc(F)ccc3F)c3ccc(Br)cc23)O1,G140S,-,strand transfer / fluorescence,HIV-1,fold resistance,Integrase,-,-,0.8
CC[C@H]1C=CCC[C@@]2(C[C@@H]3CC[C@@H]4[C@H](C(=O)OCCCCCCCCCCCCCCCC(=O)N(CCC[NH3+])CCCC[NH3+])[C@]5(CCC[C@@H](C)O5)NC(=[N+]34)N2)O1,-,-,ELISA,HIV-1,inhibition,Nef,5 µM,NL4-3,81%
NC[C@H]1O[C@H](O[C@H]2[C@H](O)[C@@H](O[C@H]3O[C@H](CO)[C@@H](O)[C@H](N)[C@H]3O)[C@H](N)C[C@@H]2N)[C@H](N)[C@@H](O)[C@@H]1O,-,-,gel,HIV-1,IC50,Rev:RRE,-,-,<100 µM
O=C(O[C@@H]1Cc2c(O)cc(O)cc2O[C@@H]1c1ccc(O)c(O)c1)c1cc(O)c(O)c(O)c1,-,-,ELISA,HIV-1,inhibition,gp120,2 µg/mL,IIIB,78%
Cc1cccc(C)c1OCC(=O)N[C@H](CCN1CC[C@@H](SCc2cccnc2)C[C@H]1C(=O)NC(C)(C)C)Cc1ccccc1,-,-,-,HIV-2,IC50,Protease,-,-,≤0.0042 µM
O=c1cnc2ccccc2n1CCNC(=S)Nc1ccc(Br)cn1,RT-V106A,-,nucleotide incorporation,HIV-1,fold resistance,Reverse transcriptase,-,-,3.1
CCOC(=O)C(C(=O)OCC)c1cn(S(=O)(=O)c2ccc(C)cc2)c2ccc(NC(=O)c3ccc(OC)cc3)cc12,Y143R,-,strand transfer / fluorescence,HIV-1,fold resistance,Integrase,-,-,1
CCn1cc(C(=O)O)c(=O)c2cc(F)c(N3CCNC(C)C3)c(F)c21,-,-,AlphaScreen,HIV-1,inhibition,Integrase,10 µM,-,2.23%
NC[C@H]1O[C@H](O[C@H]2[C@H](O)[C@@H](O[C@H]3O[C@H](CO)[C@@H](O)[C@H](N)[C@H]3O)[C@H](N)C[C@@H]2N)[C@H](O)[C@@H](O)[C@@H]1O,-,-,gel,HIV-1,inhibition,Rev:RRE,100 µM,-,0%
CCOC(=O)C(C(=O)OCC)c1cn(S(=O)(=O)c2ccc(C)cc2)c2ccc(NC(=O)c3cccc(C)c3O)cc12,G140S,-,strand transfer / fluorescence,HIV-1,fold resistance,Integrase,-,-,1
O=C1CC(c2ccccc2)Oc2cc(OC3O[C@H](CO)[C@@H](O)[C@H](O)[C@H]3O)ccc21,-,-,fluorescence,HIV-1,IC50,RNase H,-,-,33 µM
O=CCc1c(-c2ccccc2)c2cc(Cl)ccc2[nH]c1=O,-,-,AlphaScreen,HIV-1,inhibition,Integrase,10 µM,-,45.13%
CCCCCCCCC[C@@H]1C[C@@H]2CC[C@H]3C(C(=O)OC(C)(C)C)=C(C)NC(=[N+]23)N1,-,-,ELISA,HIV-1,inhibition,Nef,5 µM,NL4-3,102.9%
C[C@@](Cc1ccc(O)c(O)c1)(NN)C(=O)O,-,-,AlphaScreen,HIV-1,inhibition,Integrase,10 µM,-,62.02%
Cc1c(Sc2ccccc2)n(COCCO)c(=O)[nH]c1=O,RT-K103N Y188L,-,-,HIV,IC50,Reverse transcriptase,-,-,>5 µM
CC(C)[C@H](NC(=O)OCc1ccccn1)C(=O)NC(Cc1ccccc1)C(O)C(F)(F)C(Cc1ccccc1)NC(=O)[C@@H](NC(=O)OCc1ccccn1)C(C)C,-,-,fluorescence,HIV-1,inhibition,Protease,0.001 µM,-,71%
Oc1cc(O)c2c(c1)O[C@H](c1ccc(O)c(O)c1)[C@@H](O)C2,-,-,ELISA,HIV-1,inhibition,gp120,5 µg/mL,IIIB,24%
CCOC(=O)C(C(=O)OCC)c1cn(Cc2cc(F)ccc2F)c2ccc(F)cc12,G140S,-,strand transfer / fluorescence,HIV-1,fold resistance,Integrase,-,-,1
NC[C@@H]1O[C@H](O[C@H]2[C@@H](O)[C@H](O[C@@H]3[C@@H](O)[C@H](N)C[C@H](N)[C@H]3O[C@H]3O[C@H](CO)[C@@H](O)C[C@H]3N)O[C@@H]2CO)[C@H](N)[C@@H](O)[C@@H]1O[C@H]1O[C@H](CO)[C@@H](O)[C@H](O)[C@@H]1O,-,-,gel,HIV-1,inhibition,Rev:RRE,10 µM,-,100%
O=C1c2ccncc2C(=O)N1CCNC(=S)Nc1ccc(Br)cn1,-,-,nucleotide incorporation,HIV-1,Ki,Reverse transcriptase,-,-,0.35 µM
CC1(C)OC(=O)/C(=C/C(=O)c2cn(Cc3ccc(F)cc3)c3ccc(Br)cc23)O1,G140S,-,strand transfer / fluorescence,HIV-1,fold resistance,Integrase,-,-,1
C[C@@H]1O[C@@H](Oc2c(-c3ccc(O)c(O)c3)oc3cc(O)cc(O)c3c2=O)[C@H](O)[C@H](O)[C@H]1O,-,-,-,HIV-1,IC50,RNase H,-,-,>500 µM
CC(C)(N)C(=O)O.[Na+],-,-,p24 / ELISA,HIV-1,IC50,Capsid,-,-,0.85 µM
O=c1c2cccn2c2cccc(F)c2n1CCNC(=S)Nc1ccc(Br)cn1,RT-K103N,-,nucleotide incorporation,HIV-1,Ki,Reverse transcriptase,-,-,0.16 µM
CC[C@H]1C=CCC[C@@]2(C[C@@H]3CC[C@H]4[C@H](C(=O)OCCCCCCCCCCCCCCCC(=O)N(CCC[NH3+])C[C@@H](O)CC[NH3+])[C@@]5(CCC[C@@H](C)O5)NC(=[N+]34)N2)O1,-,-,ELISA,HIV-1,inhibition,Nef,5 µM,NL4-3,89.3%